Values quoted from earlier work in patent US8067243B2 (priority 2008, dated 2011).
Some compounds may have been tested in ways that are not shown here.

Experiments:
[1] = single fentanyl dose (50 to 100 ug); cited from earlier work
[2] = fentanyl transdermal patches (25 to 100 ug/hr); cited from earlier work

Norfentanyl
detection in urine following a single fentanyl dose [1]: up to 72 hours | urine concentration in chronic pain patients [2]: less than 5730 ng/mL
